Experimental data published in PMC12502779.

Molecular target: T1, 6xHis-OxyR (Salmonella enterica serovar Typhi ISP1820) (UniProt Q8XF66)
T1 sequence: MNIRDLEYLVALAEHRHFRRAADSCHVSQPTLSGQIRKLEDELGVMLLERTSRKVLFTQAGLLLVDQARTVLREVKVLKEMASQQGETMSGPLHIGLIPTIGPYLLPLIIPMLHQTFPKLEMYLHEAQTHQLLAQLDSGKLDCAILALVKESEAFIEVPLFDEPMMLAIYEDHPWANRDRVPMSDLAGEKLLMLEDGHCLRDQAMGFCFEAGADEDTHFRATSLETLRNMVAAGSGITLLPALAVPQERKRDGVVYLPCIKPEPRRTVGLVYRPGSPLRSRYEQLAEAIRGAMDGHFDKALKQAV
Assay: EMSA
Settings: 10 nM probe, 0.1 and 3 ug protein, positive control, EMSA with 10 nM probe, 5% acrylamide gel, RedSafe stain, pH and temperature not given (as previously described, ref 27), recombinant protein, residues 1-305, protein details: 6xHis (N-terminal, pET14b), label: none, probe letters rebuilt from the primers and the genome

GTTGGAACCAAGATCCACACGAAGCTGGTTCGGCCACCAGTCGCGGCTGGCTGTCCCTGCGCCTGCGCTTCGGTCATGCCCCCCCTGATGGAAAGGACATTTTCCAGTGGATAACGTGTTATGGGTATCGTCGGTCGTGCTCATATCTCAGCTCCCTTTTAAAGTGTTACCGTTACGATATACACCAGGAGCAAATAGATATAGTTGAATTAATCCACAGATTCGATAGCTAATACCTTTTATATTTTTAGTTACAGAGATGTAGATCAATATGAGGTGTAATAAAGCTCCCGGCAGGGATCCCG (double strand) [pkatG (katG promoter)]
binding result: binds
